Compound potency records, mixed from different reports. Data source: NIAID ChemDB in PubChem.

All rows: target-level tests

Two numbers with a dash give a range or band.

SMILES,read-out,tested at,target,species,value
O=C(O)c1nc(-c2ccc(Br)cc2)[nH]c(=O)c1O,IC50,-,HCV polymerase,Hepatitis C virus,<100 µM
COc1ccc(OC)c(COc2ccc(-c3cnc4c(-c5nn[nH]n5)cnn4c3C3CCCCC3)cc2)c1,IC50,-,RNA-dependent RNA polymerase,Hepatitis C virus,<1 µM
COc1nc(NCCCN2CCCC2=O)nc(Nc2ccc3[nH]ncc3c2)n1,inhibition,0.01 µg/mL,DNA polymerase,Hepatitis B virus,7%
COC(=O)c1nc(-c2cscc2NC(=O)NS(=O)(=O)c2ccccc2)[nH]c(=O)c1O,IC50,-,HCV polymerase,Hepatitis C virus,<50 µM
CN(C)c1ccc(-c2nc3ccc(-c4nc5cc(C(=O)O)ccc5n4C4CCCCC4)cc3nc2-c2ccc(N(C)C)cc2)cc1,inhibition,100 µM,NS5B polymerase,Hepatitis C virus,104%
CC1CCC(C(=O)N(c2cc(-c3ccccc3)sc2C(=O)O)C(C)C)C(C)C1,IC50,-,NS3 ATPase,Hepatitis C virus,<5 µM
O=C(O)c1cc2nc(-c3ccccc3)cc(-c3ccc(-c4ccccc4)cc3)n2n1,IC50,-,RNA-dependent RNA polymerase,Hepatitis C virus,1–10 µM
CNC(=O)c1c(-c2ccc(F)cc2)oc2cc(N3CCOCC3)c(OCc3ccc(OC)cc3)cc12,IC50,-,Nonstructural protein 5B,Hepatitis C virus,≤0.5 µM
O=C(O)c1ccc2c(c1)nc(-c1ccc3nc(-c4ccccc4)cc(Nc4ccc(Cl)cc4)c3c1)n2C1CCCCC1,inhibition,100 µM,NS5B polymerase,Hepatitis C virus,101%
CC[C@@H](C=O)NC(=O)[C@@H]1C[C@@H](NC(=O)c2ccccc2)CN1C(=O)[C@@H](NC(=O)[C@@H](NC(=O)c1cnccn1)C(C)C)C(C)C,Ki,-,NS3 protease,Hepatitis C virus,1–100 µM
CC(=O)NCc1ccc(COC(=O)Nc2ccsc2-c2nc(C(=O)O)c(O)c(=O)[nH]2)cc1,IC50,-,HCV polymerase,Hepatitis C virus,<25 µM
COc1nc(Nc2ccc3[nH]ncc3c2)nc(N2CCOCC2)n1,inhibition,0.01 µg/mL,DNA polymerase,Hepatitis B virus,30%
COc1ccc(-c2cccs2)c(-c2ccc3cc(-c4nc5cc(C(=O)O)ccc5n4C4CCCCC4)ccc3n2)c1,inhibition,33 µM,NS5B polymerase,Hepatitis C virus,101%
O=C(O)c1cc2nc(-c3ccco3)c(C3CCCCC3)c(=O)n2[nH]1,IC50,-,RNA-dependent RNA polymerase,Hepatitis C virus,<1 µM
Cc1c(OCc2ccccc2)ccc(-c2ccc3cc(-c4nc5cc(C(=O)O)ccc5n4C4CCCCC4)ccc3n2)c1O,inhibition,33 µM,NS5B polymerase,Hepatitis C virus,98.24%
CC[C@H](NC(=O)[C@H](CC(C)C)NC(=O)[C@@H](NC(=O)[C@@H](NC(=O)c1cnccn1)C(C)C)C(C)C)C(=O)C(=O)NCC(C)OC,Ki,-,NS3 protease,Hepatitis C virus,1–100 µM
C[C@H](NC(=O)c1ccc2cc(-c3nc4cc(C(=O)O)ccc4n3C3CCCCC3)ccc2n1)C(N)=O,inhibition,33 µM,NS5B polymerase,Hepatitis C virus,65.45%
N#Cc1cccc(C(=O)Nc2ccccc2-c2nc(C(=O)O)c(O)c(=O)[nH]2)c1,IC50,-,HCV polymerase,Hepatitis C virus,<100 µM
CN(C(=O)c1ccc(Cl)cc1Br)c1cc(-c2ccccc2)sc1C(=O)O,IC50,-,NS3 ATPase,Hepatitis C virus,<5 µM
COc1ccc(Br)cc1COC(=O)Nc1ccsc1-c1nc(C(=O)O)c(O)c(=O)[nH]1,IC50,-,HCV polymerase,Hepatitis C virus,<25 µM
CC[C@H](NC(=O)[C@H](CC(C)C)NC(=O)[C@@H](NC(=O)[C@@H](NC(=O)c1cnccn1)C(C)C)C(C)C)C(=O)C(=O)NCCc1ccc(OCc2ccccc2)c(OCc2ccccc2)c1,Ki,-,NS3 protease,Hepatitis C virus,1–100 µM
O=C(O)c1cnc2c(c1)nc(-c1ccc3nc(-c4ccccc4Br)ccc3c1)n2C1CCCCC1,inhibition,33 µM,NS5B polymerase,Hepatitis C virus,92.43%
CCOC(=O)c1cc2nc(-c3ccc(Cl)cc3)cc(-c3ccc(OC)cc3)n2n1,IC50,-,RNA-dependent RNA polymerase,Hepatitis C virus,>10 µM
O=C(O)c1ccc2c(c1)nc(-c1ccc3nc(-c4ccccc4)cc(Nc4ccccc4)c3c1)n2C1CCCCC1,inhibition,100 µM,NS5B polymerase,Hepatitis C virus,100.5%
CS(=O)(=O)c1cccc(-c2ccc(-c3cnc4c(C(=O)O)cnn4c3C3CCCCC3)cc2)c1,IC50,-,RNA-dependent RNA polymerase,Hepatitis C virus,1–10 µM
COc1nc(Nc2ccc3[nH]ncc3c2)nc(N2CCC(O)CC2)n1,inhibition,0.1 µg/mL,Nonstructural protein 5B,Hepatitis C virus,0%
CC(C)N(C(=O)c1cc(Cl)cc(Cl)c1)c1cc(-c2ccccc2)sc1C(=O)O,IC50,-,NS3 ATPase,Hepatitis C virus,5–20 µM
CNC(=O)c1c(-c2ccc(F)cc2)oc2cc(CN(C)S(C)(=O)=O)c(OC(C)C)cc12,IC50,-,Nonstructural protein 5B,Hepatitis C virus,≤0.5 µM
CC[C@@H](C=O)NC(=O)[C@H](CC(C)C)NC(=O)[C@@H](NC(=O)[C@@H](NC(=O)c1cnccn1)C(C)C)C(C)C,Ki,-,NS3 protease,Hepatitis C virus,1–100 µM
CNC(=O)c1c(-c2ccc(F)cc2)oc2cc(N(C)S(C)(=O)=O)c(OCc3ccc(C(=O)OC)cc3)cc12,IC50,-,Nonstructural protein 5B,Hepatitis C virus,≤0.5 µM
COc1nc(Nc2ccc3cn[nH]c3c2)nc(N2CCOCC2)n1,inhibition,1 µg/mL,Nonstructural protein 5B,Hepatitis C virus,41%
COc1ccc(COC(=O)Nc2ccsc2-c2nc(C(=O)O)c(O)c(=O)[nH]2)cc1,IC50,-,HCV polymerase,Hepatitis C virus,<25 µM
O=C(NC(Cc1c[nH]c2ccc(O)cc12)C(=O)O)c1ccc2c(c1)nc(-c1ccc3nc(-c4cc(C(=O)N5CCCC5)ccc4-c4ccc(Cl)cc4)cnc3c1)n2C1CCCCC1,inhibition,33 µM,NS5B polymerase,Hepatitis C virus,99.07%
COc1nc(NCCN(C)C)nc(Nc2ccc3[nH]ncc3c2)n1,inhibition,0.1 µg/mL,DNA polymerase,Hepatitis B virus,41%
Cc1cc(C)c(S(=O)(=O)Nc2ccccc2-c2nc(C(=O)O)c(O)c(=O)[nH]2)c(C)c1,IC50,-,HCV polymerase,Hepatitis C virus,<100 µM
COc1nc(NCCN2CCOCC2)nc(Nc2ccc3cn[nH]c3c2)n1,inhibition,1 µg/mL,DNA polymerase,Hepatitis B virus,79%
CNC(=O)c1c(-c2ccc(F)cc2)oc2cc(NC(C)C)c(OC(C)C)cc12,IC50,-,Nonstructural protein 5B,Hepatitis C virus,≤0.5 µM
O=C(O)c1sc(-c2ccccc2)cc1NS(=O)(=O)c1ccc(Cl)c(Cl)c1Cl,IC50,-,NS3 ATPase,Hepatitis C virus,<5 µM
COc1nc(NCCc2c[nH]c3ccccc23)nc(Nc2ccc3[nH]ncc3c2)n1,inhibition,0.01 µg/mL,DNA polymerase,Hepatitis B virus,14%
O=C(O)c1cc2nc(-c3ccc(F)cc3)cc(-c3ccc(F)cc3)n2n1,IC50,-,RNA-dependent RNA polymerase,Hepatitis C virus,>10 µM
O=C(O)c1sc(-c2ccccc2)cc1N(Cc1ccccc1)C(=O)C1CC1,IC50,-,NS3 ATPase,Hepatitis C virus,<5 µM

Blank or dashed fields: not listed here. Lines come from different laboratories, so protocols vary. ICn is the concentration giving n% inhibition. Inhibition is in % at the dose shown (toxicity tests: loss of growth or viability).